A mixed list of measured activities; the numbers were collected in NIAID ChemDB.

Shared fields: toxicity to cultured cells; cell line: HeLa; measure: CC50

CCn is the concentration with n% toxicity to the cells.

compound | read by | value
Clc1ccc(C2CCc3ccccc3O2)c(Cl)c1 | - | 12.5 µg/mL
Nc1ccc(-c2nc(=S)[nH][nH]2)cc1 | MTT | >100 µg/mL
CC(=O)OC1C=COC=C2C[C@@]3(S)C(=O)N4C5C(=COC=CC5OC(C)=O)C[C@@]4(S)C(=O)N3C21 | - | >160 µg/mL
COC(=O)OC1CCC2(C)C(=CCC3C2CCC2(C)C(C(C)CCCC(C)C)CCC32)C1 | - | >200 µg/mL
S=c1[nH]nc(-c2ccc(Cl)cc2)s1 | MTT | 13.48 µg/mL
COCC(=O)NC(CCSC[C@H]1O[C@@H](n2ccc3c(N)ncnc32)[C@H](O)[C@@H]1O)C(=O)O | - | >400 µg/mL
CC(=O)OC[C@]1(C)CCC[C@@]2(C)[C@H]1[C@H](O)CC1C[C@H](OC(C)=O)[C@]3(C)CC[C@]12C3 | - | 180 µM
CCOC(=O)C(CCSC[C@H]1O[C@@H](n2ccc3c(N)ncnc32)[C@H](O)[C@@H]1O)NC(C)=O | - | >200 µg/mL
C[C@@]12CC[C@]3(C1)C(C[C@@H](O)[C@H]1[C@](C)(C(=O)O)CCC[C@@]13C)C[C@H]2O | - | >898 µM
C[C@@H](O)C1=C[C@@H](n2cnc3c(N)ncnc32)[C@H](O)[C@@H]1O | MTT / neutral red | 12 µg/mL
Fc1ccc(-c2nc(SCC3CC3)n[nH]2)cc1 | MTT | 6.99 µg/mL
CCOC(=O)C1=C[C@@H](OC(CC)CC)[C@H](NC(C)=O)[C@@H](N)C1 | - | >100 µg/mL
CCCCC[C@H](O)/C=C/C1[C@H](O)CC(=O)[C@@H]1CCCCCCC(=O)O | - | 1.5 µg/mL
O=[N+]([O-])c1ccc(-c2nc(SCC3CC3)n[nH]2)cc1 | MTT | 8.5 µg/mL
Nc1ncnc2c([C@H]3CC[C@@H](CCl)O3)[nH]nc12 | - | 400 µg/mL
CCOC(=O)OC1C=COC=C2C[C@@]34SS[C@]5(CC6=COC=CC(O)C6N5C3=O)C(=O)N4C21 | - | 15 µg/mL
CC1OC(n2ccc(NC(=O)c3ccc(NC(=O)C(C)(N)CO)cc3)nc2=O)CCC1OC1OC(C)C(N(C)C)C(O)C1O | - | 78 µM
C#C[C@]1(CO)O[C@@H](n2cnc3c(N)ncnc32)C[C@@H]1O | MTT | >200 µM
CCc1ccc(-c2nc3c(=O)n(C)c(=O)nc-3n(CC)n2)cc1 | fluorescence | 3.2 µM
Nc1ncnc2c1c(Br)cn2[C@@H]1O[C@H](CO)[C@@H](O)[C@H]1O | - | 0.4 µg/mL
CC(=O)OC1C=COC=C2C[C@@]34SC(=O)S[C@]5(CC6=COC=CC(OC(C)=O)C6N5C3=O)C(=O)N4C21 | - | 111 µg/mL
Nc1ncnc2c1ccn2[C@@H]1O[C@H](CO)[C@@H](O)[C@H]1O | - | 0.0065 µg/mL
O=[N+]([O-])c1ccc(-c2n[nH]c(=S)s2)cc1 | MTT | 65.3 µg/mL
COC(=O)C(N)CCSC[C@H]1O[C@@H](n2ccc3c(N)ncnc32)[C@H](O)[C@@H]1O | - | 400 µg/mL
COc1cccc(N/C(SC)=C(\C#N)S(=O)(=O)c2ccccc2)c1 | MTT / absorbance | >30 µM
COc1cc(O)c2c(=O)cc(-c3ccc(OC)c(-c4c(O)cc(O)c5c(=O)cc(-c6ccc(O)cc6)oc45)c3)oc2c1 | - | 19 µg/mL
CCc1cccc(N/C(SC)=C(\C#N)S(=O)(=O)c2ccccc2)c1 | MTT / absorbance | >30 µM
Nc1ccc(N2CCCCC2)c2nonc12 | fluorescence | 25 µM
CS/C(Nc1cccc(C)c1)=C(/C#N)S(=O)(=O)c1ccccc1 | MTT / absorbance | >100 µM
CCOC(=O)OC1C=COC=C2C[C@@]34SS[C@]5(CC6=COC=CC(OC(=O)OCC)C6N5C3=O)C(=O)N4C21 | - | 50 µg/mL
CC(C)S(=O)(=O)n1c(N)nc2ccc(/C(=N/O)c3ccccc3)cc21 | - | 6.25–12.5 µg/mL
CS/C(Nc1cccc([N+](=O)[O-])c1)=C(/C#N)S(=O)(=O)c1ccccc1 | MTT / absorbance | <0.14 µM
Cc1cccc(N2CCN(c3ccc(Br)nn3)CC2)c1 | - | 12.5–25 µg/mL
COC(=O)[C@]1(C)CCC[C@@]2(C)[C@H]1[C@H](OC(=O)c1ccccc1)CC1CC(=O)[C@]3(C)CC[C@]12C3 | - | 17.8 µM
Nc1nc(NC2CC2)c2ncn([C@H]3C=C[C@@H](CO)O3)c2n1 | - | 500 µM
O=P(Oc1ccccc1)(Oc1ccccc1)Oc1ccccc1 | - | 51.9 µM
Fc1ccc(-c2nc(SCCCCBr)n[nH]2)cc1 | MTT | 24.79 µg/mL
CC(C)S/C(Nc1cccc(C(F)(F)F)c1)=C(/C#N)S(=O)(=O)c1ccccc1 | MTT / absorbance | 7.1 µM
COC(=O)[C@]1(C)CCC[C@@]2(C)[C@H]1[C@H](O)CC1CC(=O)[C@]3(C)CC[C@]12C3 | - | 210 µM
O=c1[nH]cnc2c1ncn2[C@H]1CC[C@@H](CO)O1 | - | 500 µM
CCCCCCCCCCCCCCCC(=O)OCC(O)COC(=O)CCCCCCCCCCCCCCC | - | 50–100 µg/mL
CCCS/C(Nc1cccc(C(F)(F)F)c1)=C(/C#N)S(=O)(=O)c1ccccc1 | MTT / absorbance | 1.47 µM
Nc1ccn([C@H]2CC[C@@H](CO)O2)c(=O)n1 | MTT | >100 µM
CCOc1cc(O)c(C(=O)NCc2ccc(NC)cc2)c(OC)c1 | - | ≥25 µg/mL
CS[C@@]12CC3=COC=CC(OC(C)=O)C3N1C(=O)[C@]1(SC)CC3=COC=CC(OC(C)=O)C3N1C2=O | - | 100 µg/mL
C#C[C@]1(CO)O[C@@H](n2cnc3c(=O)[nH]c(N)nc32)C[C@@H]1O | MTT | 52 µM
CCO[C@@]12CC3=COC=CC(OC(C)=O)C3N1C(=O)[C@]1(S)CC3=COC=CC(OC(C)=O)C3N1C2=O | - | 82 µg/mL
CS/C(Nc1cccc(C#N)c1)=C(/C#N)S(=O)(=O)c1ccccc1 | MTT / absorbance | 2.31 µM

The first 4 rows once more:

compound | read by | value
Clc1ccc(C2CCc3ccccc3O2)c(Cl)c1 | - | 12.5 µg/mL
Nc1ccc(-c2nc(=S)[nH][nH]2)cc1 | MTT | >100 µg/mL
CC(=O)OC1C=COC=C2C[C@@]3(S)C(=O)N4C5C(=COC=CC5OC(C)=O)C[C@@]4(S)C(=O)N3C21 | - | >160 µg/mL
COC(=O)OC1CCC2(C)C(=CCC3C2CCC2(C)C(C(C)CCCC(C)C)CCC32)C1 | - | >200 µg/mL

Lines come from different laboratories, so protocols vary. Blank or dashed fields: not listed here. a–b is a range or a potency band.